According to US20260382604A1, “Inhibitors of Type 1 Methionyl-tRNA Synthetase and Methods of Using Them” (published 2026):

Assays:
T. cruzi = T. cruzi growth inhibition assay
Description: Trypanosoma crud growth inhibition assay: The Tulahuen strain of T. cruzi that expresses the Escherichia coli 3-galactosidase gene was utilized (PMID: 8913471). Mammalian stages of parasites were grown at 37 °C on monolayers of murine 3T3 fibroblasts in RPMI 1640 (Biowhittaker Inc., Walkersville, Md.) with 10% fetal bovine serum, penicillin, streptomycin, and glutamine. Growth inhibition assays were performed in 96-well tissue culture plates (Costar, Cambridge, Mass.). First, 3T3 fibroblasts were inoculated at 103/well using RPMI 1640 without phenol red (Biowhittaker Inc.) plus 10% fetal bovine serum and glutamine. The next day, the plates were infected with T. cruzi trypomastigotes at 104/well. After 4 h, drugs were added in serial dilutions to give a final volume of 200 μl/well. The plates were incubated at 37 °C in 5% CO2 atmosphere for 6 days. At this time. CPRG (100 μM final) and Nonidet P-40 (0.1% final) (Sigma Chemical Co., St. Louis, Mo.) were added and the plates were incubated at 37 °C for approximately 4 h. Wells with 0-galactosidase activity turned the media from yellow to red, and this was quantified on an enzyme-linked immunosorbent assay reader at A570.

S. aureus = assay: Susceptibility testing (MIC), S. aureus; conditions: for S. aureus MIC: serum-free conditions
Text: (§1) Media and culture conditions. Mueller Hinton broth (MHB), cation adjusted Mueller Hinton broth (CA-MHB), Todd Hewitt Broth (THB) and Brain Heart Infusion broth (BHI) were purchased from Becton Dickinson (Franklin Lakes, NJ). Tryptic soy agar (TSA) plates and TSA with 5% sheep blood plates were purchased from Remel (San Diego, CA). MHB was used to assay all Staphylococcus aureus strains. CA-MHB was used for Staphylococcus epidermidis, Enterococcus faecalis, Enterococcus faecium, Escherichia coil, and Pseudomonas aeruginosa. THB broth supplemented with 1% yeast extract was used for Streptococcus pneumoniae and Streptococcus pyogenes. Staphylococcus. Enterococcus, Escherichia, and Pseudomonas strains were cultured at 37 °C with ambient air. Streptococcus strains were cultured in 37 °C with 5% CO2. Separate conditions for radiolabeled precursor uptake assays are described below.
Susceptibility testing: Minimum inhibitory concentration (MIC) determinations are performed in triplicate in 96-well round bottom microtiter plates (Corning, Corning NY) as described by the Clinical and Laboratory Standards Institute (CLSI). Serial two-fold dilutions of compounds are added to plates in 50 μL volumes. An additional 50 μL of media containing bacterial cells (1×10^6 CFUs/mL) is then added to each well. Maximum DMSO concentrations are 0.5%. Plates are incubated at 37 °C for at least 18 h before reading the susceptibility result by optical absorbance (OD600) using a BioTek ELx800. The lowest concentration causing ≥90% growth inhibition compared to the untreated control is recorded as the MIC (and also corresponded to the visual MIC). MICs are measured at least twice and the higher value (if different) is recorded herein.

T. brucei = assay: Trypanosoma brucei growth inhibition assay; conditions: read-out: T. brucei EC50; in vitro growth inhibition
Description: Trypanosoma brucei growth inhibition assay: Compounds are tested for anti-trypanosomal activity against Trypanosoma brucei cells (BSF 427 parasites) in HMI-9 media containing 10% heat inactivated FBS 100 U mL^−1 penicillin/100 μg mL^−1 streptomycin at 37 °C with 5% CO2. Test compounds are assayed in a 96-well format in triplicate with serial 3-fold dilutions of compound or a pentamidine control against an initial inoculum of 10 000 cells/well and quantified at 48 hours with Alamar Blue (Invitrogen, Waltham, MA).

S. pyogenes = assay: Susceptibility testing (MIC), S. pyogenes
Text: as §1
(§2) Susceptibility testing: Minimum inhibitory concentration (MIC) determinations are performed in triplicate in 96-well round bottom microtiter plates (Corning, Corning NY) as described by the Clinical and Laboratory Standards Institute (CLSI). […] Plates are incubated at 37 °C for at least 18 h before reading the susceptibility result by optical absorbance (OD600) using a BioTek ELx800. […] MICs are measured at least twice and the higher value (if different) is recorded herein.

MRSA = assay: Susceptibility testing (MIC), MRSA
Text: as §1, §2

[1] = read-out: In Vitro EC50, anti-T. cruzi activity in vitro (Table 3)

Row | SMILES | EC50 (T. cruzi; [1]) | S. aureus MIC (S. aureus) | further results
1 | COc1cc(Cl)c(-c2c(F)nc(OC)c3nc(Cc4nc5nc(Cl)ccc5[nH]4)cn23)cc1OC | 1.97 nM and 6.16 nM |  | 
2 | COc1cc(Cl)c(-c2c(F)nc(-c3cccnc3)c3nc(Cc4nc5nc(Cl)ccc5[nH]4)cn23)cc1OC | < 1.83 nM, 3.93 nM, 4.54 nM | < 0.0312 ug/mL and 0.0368 ug/mL | 
3 | COc1cc(Cl)c(-c2c(F)nc(-c3cncnc3)c3nc(Cc4nc5nc(Cl)ccc5[nH]4)cn23)cc1OC |  | 0.0359 ug/mL and < 0.0312 ug/mL | 
4 | COc1cc(Cl)c(-c2c[n+]([O-])cc3nn(Cc4nc5nc(Cl)ccc5[nH]4)cc23)cc1OC |  |  | S. aureus (ATCC29213) MIC (S. aureus): 0.699 μg/mL and 3.64 μg/mL; EC50 (T. brucei): 65.7 nM, 561 nM, 427 nM
5 | COc1cc(Cl)c(-c2c(F)nc(-n3cnc(C)n3)c3nc(Cc4nc5nc(Cl)ccc5[nH]4)cn23)cc1OC | 4.79 nM and 1.15 nM |  | 
6 | COc1cc(Cl)c(-c2cnc(N3CCNC(=O)C3)c3nn(Cc4nc5nc(Cl)ccc5[nH]4)cc23)cc1OC |  |  | S. pyogenes (ATCC19615) MIC (S. pyogenes): < 0.0312 μg/mL and 0.0729 μg/mL; EC50 (T. brucei): 4.42 nM and 16.3 nM
7 | COc1cc(Cl)c(-c2c(F)nc(-c3cnn(CCO)c3)c3nc(Cc4nc5nc(Cl)ccc5[nH]4)cn23)cc1OC | 3.09 nM and 9.56 nM |  | 
8 | COc1cc(Cl)c(-c2c(F)nc(-c3c(C)nn(C)c3C)c3nc(Cc4nc5nc(Cl)ccc5[nH]4)cn23)cc1OC | 1.49 nM, 5.99 nM, 2.25 nM |  | 
9 | COc1cc(Cl)c(-c2c(F)nc(-c3ccn(C)n3)c3nc(Cc4nc5nc(Cl)ccc5[nH]4)cn23)cc1OC |  | < 0.0312 ug/mL and 0.0171 ug/mL | 
10 | COc1cc(Cl)c(-c2cncc3nn(Cc4nc5nc(Cl)ccc5[nH]4)cc23)cc1OC |  |  | S. aureus (ATCC29213) MIC (S. aureus): < 0.0312 μg/mL and 0.101 μg/mL
11 | COc1cc(Cl)c(-c2c(F)nc(-c3ccncc3)c3nc(Cc4nc5nc(Cl)ccc5[nH]4)cn23)cc1OC |  | < 0.0312 ug/mL and 0.0135 ug/mL | 
12 | COc1cc(Cl)c(-c2cncc3nn(Cc4nc5nc(F)ccc5[nH]4)cc23)cc1OC |  |  | MRSA (ATCC33591) MIC (MRSA): 0.123 μg/mL and 0.0519 μg/mL
13 | COc1cc(Cl)c(-c2cnc(Cl)c3nn(Cc4nc5nc(Cl)ccc5[nH]4)cc23)cc1OC |  |  | S. aureus (ATCC29213) MIC (S. aureus): 0.127 μg/mL and 0.0504 μg/mL
14 | COc1cc(Cl)c(-c2c(F)nc(-c3c(C)cnn3C)c3nc(Cc4nc5nc(Cl)ccc5[nH]4)cn23)cc1OC | < 1.83 nM, 8.92 nM, 9.05 nM | 0.0351 ug/mL and 0.101 ug/mL | 
15 | COc1cc(Cl)c(-c2c(F)nc(-c3ccnn3C)c3nc(Cc4nc5nc(Cl)ccc5[nH]4)cn23)cc1OC | < 1.83 nM, 3.73 nM, 4.54 nM | < 0.0312 ug/mL and 0.0458 ug/mL | 
16 | COc1cc(Cl)c(-c2cnc(NCC(F)F)c3nn(Cc4nc5nc(Cl)ccc5[nH]4)cc23)cc1OC |  |  | EC50 (T. brucei): 2.89 nM and 17.2 nM
17 | COc1cc(Cl)c(-c2cnc(NCC(C)(C)O)c3nn(Cc4nc5nc(Cl)ccc5[nH]4)cc23)cc1OC |  |  | EC50 (T. brucei): 2.35 nM and 8.47 nM
18 | CCn1cc(-c2nc(F)c(-c3cc(OC)c(OC)cc3Cl)n3cc(Cc4nc5nc(Cl)ccc5[nH]4)nc23)cn1 | < 1.83 nM, 3.95 nM, 6.41 nM |  | 
19 | COc1cc(Cl)c(-c2cnc(N3CCOCC3)c3nn(Cc4nc5nc(Cl)ccc5[nH]4)cc23)cc1OC |  |  | S. aureus (ATCC29213) MIC (S. aureus): 0.257 μg/mL and 0.102 μg/mL; EC50 (T. brucei): < 0.91 nM, 3.26 nM, 1.06 nM
20 | COc1cc(F)c(-c2c(F)nc(-c3cncnc3)c3nc(Cc4nc5nc(Cl)ccc5[nH]4)cn23)cc1OC |  | < 0.0312 ug/mL and 0.0346 ug/mL | 
21 | COc1cc(Cl)c(-c2cnc(S(C)(=O)=O)c3nn(Cc4nc5nc(Cl)ccc5[nH]4)cc23)cc1OC |  |  | S. aureus (ATCC29213) MIC (S. aureus): < 0.0312 μg/mL and 0.0457 μg/mL
22 | COc1cc(Cl)c(-c2c(F)nc(-c3cn(C)nc3C)c3nc(Cc4nc5nc(Cl)ccc5[nH]4)cn23)cc1OC | < 1.83 nM, 3.86 nM, 6 nM | 0.0995 ug/mL and 0.0253 ug/mL | 
23 | COc1cc(Cl)c(-c2cnc([S+](C)[O-])c3nn(Cc4nc5nc(Cl)ccc5[nH]4)cc23)cc1OC (stereo not shown) |  |  | EC50 (T. cruzi; read-out: T. cruzi EC50, in vitro growth inhibition (Table 4)): 94.7 nM, 222 nM, 245 nM
24 | CCc1ncn(-c2nc(F)c(-c3cc(OC)c(OC)cc3Cl)n3cc(Cc4nc5nc(Cl)ccc5[nH]4)nc23)n1 | 9.29 nM and 2.96 nM |  | 

Read-outs that look alike come from different tables or passages of the source. Not every entry of the source has a single result; some have several. They are shown here; other results are not. An entry can have further records. The records of an entry differ for a reason that is not stated; they may come from other doses, times, organisms or constructs than stated.
